Reference: paper PMC7504336, “Ribosomal RNA Modulates Aggregation of the Podospora Prion Protein HET-s” (International Journal of Molecular Sciences, 2020)

Target: the molecule itself
Assay: Rayleigh light scattering

B1: HET-s prion protein from Podospora anserina (natural protein, UniProt Q03689 1-289, looked up)
chain: MSEPFGIVAGALNVAGLFNNCVDCFEYVQLGRPFGRDYERCQLRLDIAKARLSRWGEAVKINDDPRFHSDAPTDKSVQLAKSIVEEILLLFESAQKTSKRYELVADQQDLVVFEDKDMKPIGRALHRRLNDLVSRRQKQTSLAKKTAWALYDGKSLEKIVDQVARFVDELEKAFPIEAVCHKLAEIEIEEVEDEASLTILKDAAGGIDAAMSDAAAQKIDAIVGRNSAKDIRTEERARVQLGNVVTAAALHGGIRISDQTTNSVETVVGKGESRVLIGNEYGGKGFWDN
binding result: binds
